{
  "source": "patent US10184933B2",
  "about": "“Compositions, systems and methods for gene expression noise drug screening and uses thereof” (priority 2013, dated 2019)",
  "test_system": "latent HIV-1 in JLat 8.6 cells",
  "type": "cell-based",
  "data": [
    {"substance": "bleomycin [V66]", "values": [
      {"measurement": "synergy in reactivation of HIV-1 latency", "result": "synergized"}
    ]}
  ]
}
